# PubChem BioAssay AID1259414, Drosophila RNAi Screening Center – 2018
# Purpose: 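Genome-wide screen for host control of endosymbiont load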 (primary screen)
# Cell system: Drosophila JW18 cells infected with Wolbachia
# Knock-down reagent: long dsRNA against Drosophila genes, 0.25 µg dsRNA per well of a 384-well plate
# Timing: 5 days
# Challenge: cells persistently infected with Wolbachia before knock-down; no added drug
# Measured: 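Automated imaging of bacterial rRNA staining divided by host cell count, reported as plate-normalised robust z-score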
# Direction: Wolbachia per cell robust z: higher = more Wolbachia per host cell than the plate typical
# Active means: 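Active if absolute robust z reaches 1.5 in two or more of three replicates, leaving out multi- or no-target dsRNAs, genes unexpressed in JW18 and A1 wells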
# In all, the deposit lists about 24,000 reagents; this is an unselected part of those that have a named target and a result. Of all reagents, about 1,210 (5%) are marked active. 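Inactive calls also include excluded dsRNAs with several or no targets, genes unexpressed in JW18, and well A1, regardless of score.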 Unmarked entries are inactive. A plus sign joins genes that one reagent is predicted to hit.
Target gene,DRSC id,"Wolbachia per cell robust z, rep 1","Wolbachia per cell robust z, rep 2","Wolbachia per cell robust z, rep 3"
Obp58d,DRSC04162,0.931,1.2,1.17
nAChRalpha3,DRSC18800,0.107,0.147,-0.924
nAChRalpha3,DRSC25751,-1.92,-0.216,0.227
CG15125,DRSC06547,0.0439,-1.41,-1
CG18731,DRSC15377,-0.182,0.66,1.27
CG43315,DRSC06296,-0.0191,0.415,0.722
Fibp,DRSC11031,-0.885,-0.578,-4.57
Fibp,DRSC26529,-2.15 (active),-1.59,-0.725
Eo,DRSC20187,0.259,-0.336,-0.343
Eo,DRSC26129,0.172,0.841,-0.217
Grx1,DRSC10727,0.00289,0.767,0.64
Sgp,DRSC02195,0.0778,-0.524,-1.15
jigr1,DRSC15233,-5.63 (active),-2.21,-1.23
jigr1,DRSC22617,-0.345,-0.0215,1.25
CG12836,DRSC06182,-2.23,-0.535,-0.343
ems,DRSC25044,-0.577,-0.922,-1.24
CG31431,DRSC14589,-1.33,-2.9,-1.95
CG3817,DRSC15515,-3.13,0.906,0.487
CG3817,DRSC27548,-0.744,-0.787,-0.595
CG15643,DRSC19679,0.645,1.19,0.401
CG15643,DRSC27051,-8.66,0.277,0.85
TfIIFalpha,DRSC12608,0.628,-0.354,-0.218
TfIIFalpha,DRSC26379,0.257,-0.22,-0.379
TfIIFalpha,DRSC38961,0.0651,0.164,-1.39
MsR1,DRSC08615,-0.141,-1.17,-1.2
MsR1,DRSC26467,-0.0533,-0.0155,-0.935
CG11590,DRSC19411,-3.02,-0.445,0.775
CG11590,DRSC28405,-1.11,-0.457,-1.07
Srg1,DRSC14640,-1.1,-0.118,-0.685
Srg1,DRSC29445,-0.478,-0.136,-0.982
mus81,DRSC18180,1,0.388,0.434
mus81,DRSC18644,-1.25,-0.244,-2.26
Ccdc58,DRSC10218,-0.301,-1.34,-0.875
Fatp3,DRSC04366,0.983,0.284,-4.46
Fatp3,DRSC29135,-0.34,-0.163,0.357
CG17193,DRSC15187,0.0926,0.443,0.665
Dna2,DRSC18254,-0.329,-0.207,0.511
CG13794,DRSC02298,-0.821,-0.663,-1.46
CG13794,DRSC25419,-0.0241,-0.268,0.923
CG31998,DRSC17137,-0.0714,0.977,-6.54
CG31998,DRSC17138,-3,-1.17,0.898
RpS28a,DRSC15064,0.398,0.567,-3.9
CG16719,DRSC10222,-4.94 (active),0.762,-4.34
CG10725,DRSC09788,0.864,-0.59,-0.675
mthl4 + mthl3,DRSC25990,-0.178,0.199,-0.133
LBR,DRSC04298,-0.384,-0.0151,0.154
LBR,DRSC29462,0.0294,-2.7,1.11
Ipk1,DRSC04235,0.021,0.421,0.282
Ipk1,DRSC04236,0.495,-0.378,0.192
Ipk1,DRSC04237,0.332,0.899,0.771
kibra,DRSC14533,-0.94,0.081,-1.63
kibra,DRSC23283,-2.44,-0.802,-0.585
kibra,DRSC29376,-0.0358,-0.329,0.877
CG33770,DRSC11717,-1.09,-1.04,-0.955
P32,DRSC06988,-0.806,-3.15,0.825
Dr,DRSC17002,-0.587,-0.298,0.193
Dr,DRSC22708,0.0113,0.71,1.1
Tsp,DRSC02144,0.723,-0.0114,-3.43
Tsp,DRSC02145,-0.771,-0.0933,-0.00425
TwdlY,DRSC19153,-2.36,-0.532,-0.68
Grip71,DRSC02042,0.661,0.702,0.294
Hmgcl,DRSC02051,-3.37 (active),-1.55,0.165
CG13724,DRSC10053,-1.82,0.225,-0.692
CG13724,DRSC25395,-0.644,0.528,0.954
UQCR-14,DRSC19870,-1.23,-0.331,0.898
UQCR-14,DRSC25269,-0.383,0.164,-0.314
al,DRSC00799,-2.08,1.04,0.418
Ir20a,DRSC20506,-0.582,0.000994,-1.19

A portion from the list above:
Target gene,DRSC id,"Wolbachia per cell robust z, rep 1","Wolbachia per cell robust z, rep 2","Wolbachia per cell robust z, rep 3"
CG15125,DRSC06547,0.0439,-1.41,-1
CG18731,DRSC15377,-0.182,0.66,1.27
CG43315,DRSC06296,-0.0191,0.415,0.722
Fibp,DRSC11031,-0.885,-0.578,-4.57
Fibp,DRSC26529,-2.15 (active),-1.59,-0.725
Eo,DRSC20187,0.259,-0.336,-0.343
Eo,DRSC26129,0.172,0.841,-0.217
Grx1,DRSC10727,0.00289,0.767,0.64
Sgp,DRSC02195,0.0778,-0.524,-1.15
